These results are taken from article PMC10058565, “Virological and Genetic Characterization of the Unusual Avian Influenza H14Nx Viruses in the Northern Asia” (2023).

SMILES strings stand for the structures.

The assay has as its system NA of A/29 (H14N3). The experiment in a line: MUNANA fluorescence NA inhibition assay, whole virus. The note with it: read-out: Oseltamivir (Tamiflu) / Mean IC50 ^a (nM) ± SD; MUNANA 100 µM.

As for `CCC(CC)O[C@@H]1C=C(C(=O)O)C[C@H](N)[C@H]1NC(C)=O`, the IC50 turned out to be 0.58 nM.
